In article PMC5544767:

Key:
[1] = target: Crp (cAMP receptor protein), His-tagged (UniProt B4EZ60); test: EMSA; conditions: 50 uM cAMP, unlabeled fragment competes, EMSA: 150 mM KCl, 10 mM MgCl2, 30 mM Tris-HCl pH 8.0, 50 uM cAMP, room temperature 30 min, recombinant protein, residues 1-210, protein details: His-tag, pET32a(+) (vector fusion not detailed), label: IRDye 700, probe letters rebuilt from the primers and the genome, part of a longer molecule
[2] = target: Crp (cAMP receptor protein), His-tagged (UniProt B4EZ60); test: DNase I footprinting; conditions: 50 uM cAMP, 512 nM Crp, poly(dI-dC), footprint: 10 mM Tris-HCl pH 7.5, 0.1 mM EDTA, 5.5 mM MgCl2, 20 ug/ml poly(dI-dC), 0.2 mg/ml BSA, room temperature 30 min, recombinant protein, residues 1-210, protein details: His-tag, pET32a(+) (vector fusion not detailed), label: 5' FAM (T7 primer), probe letters rebuilt from the primers and the genome, part of a longer molecule

“AGGCTTTTGCTGATTTGACCAAAATCGATAGCTTGGTTAGCACTTTCGGTAGCAATACCACAAGGTGCATCAATAACTTTACCAGTGAAAGTAATAGTACCATCACCTGAAGCCGCTTGAGCAACAGTCGCAGAAAAAGCCATTGATGCAATAGCGAACATCGCTAATTTATTCAATTTCATATTTTTACCTTTATATTTAACGTAGGAATTAAAGCGTTAAAAAATTAACTATGATATATAGTTACACACATTATCCTCATCCCATCCAGAGATGATATTGTTACTTCCATTACTTTTAAAAACTTATGACTATTTAAATTTTTATATAAAATTTAAACTGTATTTATACAGATGATATAAATCATCTAAACACGCAAATAGAATGGAAACGAATCACTATTTTTTAATTTATGTTTTATAATATCTACGACAAGAACTTTTCGATAAAACTCAGACCAGTCAGCATCCAATAATTTTAATATCATATCTAATGTTTCAATATTGATACTTGTTATTCCATTTTCATATCTTGATATTTGTTGCTGACTCACATCAAGTAATTCGCCTAATTGGGCTCCTGTTAGAGATTTACGTA (double strand) [pmpA promoter fragment (EMSA)]”: binds ([1]; 0-2 uM Crp).
“GGGTAGATTCGCTTATTAATTCTCAGCAAGTTTTATTACTAATATTACTTGAATAGTTAATGAACTAATTCCATAATAATGATTATCTTTTTGTGATGTAACTCACATAGTATTTAAATTAGACTACTTTATCCGTTGAATAACTTAATCATTAAGGAGTAAAGTTATCTCGTTAGGATTATTCTTAACGTGATATATTGGCGAGCATTTAAAATCCTTTTTAATTTAAATGTTTTTCTCGCTACTTTTTGAAATGATCGTAATCAAGTAATACAAGGTAGTGTTACTACGAGTCATATTCATAAAATGGGGCCTGGAAATTCAATATACATTTATATTAATTTCCTCGGGATCTTACTTTAAACAAGATCCTCTTTGTTCAATATAATCGGACGGGATGTAAAGAG (double strand) [flhDC promoter fragment]”: binds ([1]; 0-0.5 uM Crp).
“AGGCTTTTGCTGATTTGACCAAAATCGATAGCTTGGTTAGCACTTTCGGTAGCAATACCACAAGGTGCATCAATAACTTTACCAGTGAAAGTAATAGTACCATCACCTGAAGCCGCTTGAGCAACAGTCGCAGAAAAAGCCATTGATGCAATAGCGAACATCGCTAATTTATTCAATTTCATATTTTTACCTTTATATTTAACGTAGGAATTAAAGCGTTAAAAAATTAACTATGATATATAGTTACACACATTATCCTCATCCCATCCAGAGATGATATTGTTACTTCCATTACTTTTAAAAACTTATGACTATTTAAATTTTTATATAAAATTTAAACTGTATTTATACAGATGATATAAATCATCTAAACACGCAAATAGAATGGAAACGAATCACTATTTTTTAATTTATGTTTTATAATATCTACGACAAGAACTTTTCGATAAAACTCAGACCAGTCAGCATCCAATAATTTTAATATCATATCTAATGTTTCAATATTGATACTTGTTATTCCATTTTCATATCTTGATATTTGTTGCTGACTCACATCAAGTAATTCGCCTAATTGGGCTCCTGTTAGAGATTTACGTA (double strand) [pmpA promoter fragment (footprint)]”: binds [2].

For at least one entry, the source does not settle the construct or the ends of the probe.
